Anti-infective test results gathered from many reports (values: NIAID ChemDB through PubChem).

Percent inhibition refers to the dose given; in toxicity tests it is the harm to the cells.

structure	organism	method	dose	endpoint	kind	strain	protein	cells	mutations	value
Cc1ccc(N2CCN(c3cncc(-c4ccc(F)c(Cl)c4)n3)CC2)c(C)c1	Cytomegalovirus	-	10 µM	inhibition	target	-	UL97 kinase	-	-	>15%
O=C(O)Cc1cccc2ccccc12	Mycobacterium tuberculosis	-	-	MIC	culture	H37Rv	-	-	-	100 µg/mL
CCCCCCCC/C=C/CCCCCCCC(=O)Nc1nnc(NCC(c2ccccc2)c2ccccc2)s1	Human cytomegalovirus	-	-	IC50	target	-	Polymerase	-	-	<25 µM
C#CC[C@@H](C(=O)N[C@H](/C=C/C(=O)OCC)C[C@@H]1CCNC1=O)n1cccc(NC(=O)c2cc(C)on2)c1=O	Rhinovirus	cytopathic effect / XTT	0.12 µM	inhibition	culture	Serotype 81	-	H1-HELA	-	90%
COc1cc(NS(=O)(=O)c2ccc(C)cc2)ccc1NC(C)=O	Mycobacterium tuberculosis	-	-	MIC	culture	H37Rv	-	-	-	>100 µg/mL
CC(=O)OCC1OC2OC(C)(C)OC2C1NC(=O)C(F)(F)F	Mycobacterium tuberculosis	BACTEC	12.5 µg/mL	inhibition	culture	H37Rv	-	-	-	4%
FC(F)(F)c1cccc(N=Nc2cccc(C(F)(F)F)c2)c1	Mycobacterium tuberculosis	-	-	MIC	culture	H37Rv	-	-	-	>100 µg/mL
O=C(Nc1nnc(NCCNc2ccccc2)s1)c1ccc(Br)cc1	Human cytomegalovirus	-	-	IC50	target	-	Polymerase	-	-	>25 µM
CC1(C)CO/C(=C\C(=O)c2ccccc2)N1C(=O)c1ccccc1	Mycobacterium tuberculosis	BACTEC	-	MIC bound	culture	H37Rv	-	-	-	>12.5 µg/mL
O=C(Nc1nnc(NCc2ccc(F)cc2)s1)c1ccc2c(c1)C(=O)OC2=O	Human cytomegalovirus	-	-	IC50	target	-	Polymerase	-	-	<25 µM
COc1cc2c(c(OC)c1OC)-c1ccc(OC)c(=O)cc1C(NC=O)CC2	Mycobacterium tuberculosis	BACTEC	-	MIC bound	culture	H37Rv	-	-	-	>12.5 µg/mL
NS(=O)(=O)c1ccc(CCNc2nnc(NC(=O)c3ccc(C(F)(F)F)cc3)s2)cc1	Human cytomegalovirus	-	-	IC50	target	-	Polymerase	-	-	>25 µM
COC(=O)c1ccc(/C=C/c2ccc(Br)cc2)cc1	Mycobacterium tuberculosis	-	-	MIC	culture	H37Rv	-	-	-	>100 µg/mL
C[C@@H]1[C@H]2C[C@@H](C[C@H]1NCCNC[C@@H]1CC[C@H]3C[C@@H]1C3(C)C)C2(C)C	Mycobacterium tuberculosis	-	-	MIC	culture	-	-	-	-	3.13 µM
O=C(O)c1cc(Cl)sc1Cl	Mycobacterium tuberculosis	-	-	MIC	culture	H37Rv	-	-	-	>100 µg/mL
CC(C)=CCc1c(C)cc2cc3c(c(O)c2c1O)C(O)=CC(=O)C3(CC=C(C)C)C/C=C(\C)CO	Mycobacterium tuberculosis	BACTEC	-	MIC bound	culture	H37Rv	-	-	-	>12.5 µg/mL
O=C(Nc1nnc(NCCNc2ccccc2)s1)c1ccc(Cl)c(Cl)c1	Human cytomegalovirus	-	-	IC50	target	-	Polymerase	-	-	>25 µM
CC1(C)CCCN1CCCN1c2ccccc2Sc2ccc(Cl)cc21.Cl	Mycobacterium tuberculosis	BACTEC	-	MIC bound	culture	H37Rv	-	-	-	≤12.5 µg/mL
Fc1ccc(-c2cncc(N3CCN(c4ccccn4)CC3)n2)c(F)c1	Cytomegalovirus	-	-	IC50	target	-	UL97 kinase	-	-	<100 µM
COc1ccc(-n2c(CCCC(=O)O)nc3c2C(=O)c2ccccc2C3=O)cc1	Mycobacterium tuberculosis	BACTEC	-	MIC bound	culture	H37Rv	-	-	-	>12.5 µg/mL
c1ccc(C2CCN(c3cncc(-c4csc5ccccc45)n3)CC2)cc1	Cytomegalovirus	-	-	IC50	target	-	UL97 kinase	-	-	<100 µM
O=C(O)c1c(O)cc(O)cc1O	Mycobacterium tuberculosis	-	-	MIC	culture	H37Rv	-	-	-	>100 µg/mL
CCO/N=C/c1ccc(OCCC2CCN(c3ccc(C)nn3)CC2)cc1	Rhinovirus	neutral red	-	EC50	culture	FO2-2547 (ICAM-1 receptor group 70)	-	KB	-	2.174 µM
OCCOCCOCCO	Mycobacterium tuberculosis	-	-	MIC	culture	H37Rv	-	-	-	>100 µg/mL
C=CCc1ccc(O)c(OC)c1	Candida albicans	turbidity	-	MIC90	culture	2642	-	-	-	475 µg/mL
CCCCCCCC/C=C/CCCCCCCC(=O)Nc1nnc(NCCc2c[nH]c3ccccc23)s1	Human cytomegalovirus	-	-	IC50	target	-	Polymerase	-	-	<25 µM
c1ccc(C(CCNCCN[C@H]2C[C@@H]3CC[C@H]2C3)c2ccccc2)cc1	Mycobacterium tuberculosis	-	-	MIC	culture	-	-	-	-	3.13 µM
CCOC(=O)c1cc2c(ccc3ccccc32)[nH]1	Mycobacterium tuberculosis	resazurin	-	MIC bound	culture	H37Rv	-	-	-	>6.25 µg/mL
Cl.O=C(O)CSc1ccnc2cc(Cl)ccc12	Mycobacterium tuberculosis	-	-	MIC	culture	H37Rv	-	-	-	>100 µg/mL
CCC(CC)O[C@@H]1C=C(C(=O)O)C[C@H](N)[C@H]1NC(C)=O	Influenza A virus	visual reading	-	EC50	culture	H1N1 A/Beijing/262/95	-	MDCK	-	1.3 µM
CC(C)=CCC/C(C)=C/COc1ccc(/C=C2\C(=O)N(O)[C@@H](C)C(=O)N2O)cc1	Mycobacterium tuberculosis	-	-	MIC	culture	ETA-R	-	-	-	>12.5 µg/mL
COc1ccc(OC)c(CCNCCNCc2cccc(F)c2)c1	Mycobacterium tuberculosis	-	-	MIC	culture	-	-	-	-	12.5 µM
COc1ccc(N2CCN(c3cncc(-c4ccc(C(N)=O)cc4)n3)CC2)cc1	Cytomegalovirus	-	-	IC50	target	-	UL97 kinase	-	-	<1 µM
Nc1ccc2nc(-c3ccccc3Cl)c(-c3ccccc3Cl)nc2c1	Mycobacterium tuberculosis	-	-	MIC	culture	H37Rv	-	-	-	>100 µg/mL
N#CC1OC(COC(=O)c2ccccc2)C(OC(=O)c2ccccc2)C1OC(=O)c1ccccc1	Mycobacterium tuberculosis	BACTEC	-	MIC bound	culture	H37Rv	-	-	-	>12.5 µg/mL
COc1ccc(-c2cncc(N3CCN(c4ccc(Cl)c(Cl)c4)CC3)n2)cc1OC	Cytomegalovirus	-	-	IC50	target	-	UL97 kinase	-	-	<100 µM
CC(C)(C)CC(C)(C)NCCNCC12CC3CC(CC(C3)C1)C2	Mycobacterium tuberculosis	-	-	MIC	culture	-	-	-	-	4.7 µM
COc1ccc2c(c1)Sc1c(Cl)c3c(c(Cl)c1=N2)Sc1cc(OC)ccc1N=3	Mycobacterium tuberculosis	BACTEC	12.5 µg/mL	inhibition	culture	H37Rv	-	-	-	-5%
CCOc1ccc(-c2cncc(N3CCN(c4cccc(Cl)c4)CC3)n2)cc1	Cytomegalovirus	-	1 µM	inhibition	target	-	UL97 kinase	-	-	<50%
CC(=O)OC[C@H]1O[C@@H](O[C@@H]([C@H](OC(C)=O)[C@H](C=O)OC(C)=O)[C@@H](COC(C)=O)OC(C)=O)[C@H](OC(C)=O)[C@@H](OC(C)=O)[C@H]1OC(C)=O	Mycobacterium tuberculosis	-	-	MIC bound	culture	H37Rv	-	-	-	>6.25 µg/mL
CCCCC(CC)CN1CN(CC(CC)CCCC)CC(C)(NCCNCC2CCCO2)C1	Mycobacterium tuberculosis	-	-	MIC	culture	-	-	-	-	12.5 µM
Cc1occc1C(=S)Nc1ccc(Cl)c(COC(C)(C)C)c1	Mycobacterium tuberculosis	BACTEC	12.5 µg/mL	inhibition	culture	H37Rv	-	-	-	98%
CCCCCCCCCCCCN1c2ccccc2Sc2ccccc21	Mycobacterium tuberculosis	-	-	MIC	culture	H37Rv	-	-	-	>100 µg/mL
CC(=O)Oc1ccc2ccc(=O)oc2c1OC(C)=O	Mycobacterium tuberculosis	BACTEC	-	MIC	culture	H37Rv	-	-	-	≥12.5 µg/mL
CC(CNC[C@@H]1CC[C@H]2C[C@@H]1C2(C)C)NC[C@@H]1CC[C@H]2C[C@@H]1C2(C)C	Mycobacterium tuberculosis	-	-	MIC	culture	-	-	-	-	6.25 µM
CC(C)(O)C#CC(C)(C)O	Mycobacterium tuberculosis	-	-	MIC	culture	H37Rv	-	-	-	>100 µg/mL
O=C(Nc1nnc(NCc2cccs2)s1)c1cc2ccccc2s1	Human cytomegalovirus	-	-	IC50	target	-	Polymerase	-	-	>25 µM
C[C@H](Cc1ccc(O)c(O)c1)[C@@H](C)Cc1ccc(O)c(O)c1	Candida lusitaniae	broth dilution	-	MIC50	culture	CCC 131-2000	-	-	-	250 µg/mL
COc1cc(NCCCCN2C(=O)c3ccccc3C2=O)c2ncccc2c1	Mycobacterium tuberculosis	-	-	MIC	culture	H37Rv	-	-	-	12.5 µg/mL
O=c1c2ccccc2[se]n1-c1cccnc1	Mycobacterium tuberculosis	BACTEC	12.5 µg/mL	inhibition	culture	H37Rv	-	-	-	99%
FC(F)(F)c1cccc(N2CCN(c3cncc(-c4ccc5ccccc5c4)n3)CC2)c1	Cytomegalovirus	-	-	IC50	target	-	UL97 kinase	-	-	<100 µM
CCCCC(=O)N/N=C/c1cccc(OC)c1OC	Mycobacterium tuberculosis	BACTEC	-	MIC bound	culture	H37Rv	-	-	-	>12.5 µg/mL
Cl.Nc1ccc(NCCCCN2CCOCC2)nc1	Mycobacterium tuberculosis	-	-	MIC	culture	H37Rv	-	-	-	>100 µg/mL
COC(=O)Nc1nc2ccc(C3c4c(n[nH]c4C)CC(C)(O)C3C(C)=O)cc2[nH]1	Mycobacterium tuberculosis	BACTEC	12.5 µg/mL	inhibition	culture	H37Rv	-	-	-	-13%
NC(=O)OCCCl	Mycobacterium tuberculosis	-	-	MIC	culture	H37Rv	-	-	-	>100 µg/mL
Fc1cccc(CNCCNCCCCc2ccccc2)c1	Mycobacterium tuberculosis	-	-	MIC	culture	-	-	-	-	25 µM
CC(C)c1cc(C(C)C)c(C(=O)Nc2nnc(NCCN(C)C)s2)c(C(C)C)c1	Human cytomegalovirus	-	-	IC50	target	-	Polymerase	-	-	>25 µM
O=C(OC(=O)c1cccc2ccccc12)c1cccc2ccccc12	Mycobacterium tuberculosis	-	-	MIC	culture	H37Rv	-	-	-	100 µg/mL
CC(C)C(N)C(=O)NC(Cc1ccc(O)cc1)C(=O)NC(C(=O)O)C(C)C	Mycobacterium tuberculosis	BACTEC	-	MIC bound	culture	H37Rv	-	-	-	>12.5 µg/mL
CC(C)=CCN1c2cc(Cl)cc3[nH]c(=S)n(c23)C[C@@H]1C	HIV-1	-	-	EC95	culture	-	-	MT-4	RT-L74V A98G	0.8 µM
O=[N+]([O-])c1ccc([N+](=O)[O-])o1	Mycobacterium tuberculosis	-	-	MIC	culture	H37Rv	-	-	-	>100 µg/mL
Fc1ccc(N2CCCCC2)c(NC(=S)c2ccncc2)c1	-	kinase activity	10 µM	inhibition	host protein	-	cKit	-	-	5%
CC(C)c1ccc2c(c1)CC[C@H]1[C@](C)(CNCCNC3CCCC(C)C3C)CCC[C@]21C	Mycobacterium tuberculosis	-	-	MIC	culture	-	-	-	-	25 µM
CCN(CC)c1ccc(Cc2ccc(N(CC)CC)cc2)cc1	Mycobacterium tuberculosis	-	-	MIC	culture	H37Rv	-	-	-	>100 µg/mL
CC(=O)c1ccc(-c2cncc(N3CCN(c4cccc(Cl)c4)CC3)n2)cc1	Cytomegalovirus	-	1 µM	inhibition	target	-	UL97 kinase	-	-	<50%
CCN(CC)CC(=O)Nc1c(C)cc(C(=O)NN)cc1C	Mycobacterium tuberculosis	BACTEC	-	MIC bound	culture	H37Rv	-	-	-	>12.5 µg/mL
COc1ccccc1C(=O)Nc1nnc(NC2CCCc3ccccc32)s1	Human cytomegalovirus	-	-	IC50	target	-	Polymerase	-	-	>25 µM
CCOC(=O)CNN	Mycobacterium tuberculosis	-	-	MIC	culture	H37Rv	-	-	-	>100 µg/mL
Cc1cc(Nc2ccc(N(C)C)cc2)c2cc(N(C)C)ccc2n1	Mycobacterium tuberculosis	resazurin	-	MIC	culture	H37Rv	-	-	-	6.25 µg/mL
CC(NC(=S)NC(C)c1ccccc1)c1ccccc1	Mycobacterium tuberculosis	-	-	MIC	culture	H37Rv	-	-	-	>100 µg/mL
COc1ccc(N2C(=Nc3ccccc3)SC(=N\S(=O)(=O)c3ccccc3)/C2=N\S(=O)(=O)c2ccccc2)cc1	Mycobacterium tuberculosis	resazurin	-	MIC bound	culture	H37Rv	-	-	-	>6.25 µg/mL
CCCCCCCCCCCNCCN[C@H](CO)Cc1ccccc1	Mycobacterium tuberculosis	-	-	MIC	culture	-	-	-	-	25 µM
N#CC(c1ccccc1)C(c1ccccc1)C(C#N)c1ccc([N+](=O)[O-])cc1	Mycobacterium tuberculosis	-	-	MIC	culture	H37Rv	-	-	-	>100 µg/mL

8 of the rows above, restated:

structure | organism | method | dose | endpoint | kind | strain | protein | cells | mutations | value
CC(=O)OC[C@H]1O[C@@H](O[C@@H]([C@H](OC(C)=O)[C@H](C=O)OC(C)=O)[C@@H](COC(C)=O)OC(C)=O)[C@H](OC(C)=O)[C@@H](OC(C)=O)[C@H]1OC(C)=O | Mycobacterium tuberculosis | - | - | MIC bound | culture | H37Rv | - | - | - | >6.25 µg/mL
O=C(O)c1cc(Cl)sc1Cl | Mycobacterium tuberculosis | - | - | MIC | culture | H37Rv | - | - | - | >100 µg/mL
COc1ccc2c(c1)Sc1c(Cl)c3c(c(Cl)c1=N2)Sc1cc(OC)ccc1N=3 | Mycobacterium tuberculosis | BACTEC | 12.5 µg/mL | inhibition | culture | H37Rv | - | - | - | -5%
CC(=O)Oc1ccc2ccc(=O)oc2c1OC(C)=O | Mycobacterium tuberculosis | BACTEC | - | MIC | culture | H37Rv | - | - | - | ≥12.5 µg/mL
COc1ccc(-c2cncc(N3CCN(c4ccc(Cl)c(Cl)c4)CC3)n2)cc1OC | Cytomegalovirus | - | - | IC50 | target | - | UL97 kinase | - | - | <100 µM
CC(C)c1ccc2c(c1)CC[C@H]1[C@](C)(CNCCNC3CCCC(C)C3C)CCC[C@]21C | Mycobacterium tuberculosis | - | - | MIC | culture | - | - | - | - | 25 µM
C=CCc1ccc(O)c(OC)c1 | Candida albicans | turbidity | - | MIC90 | culture | 2642 | - | - | - | 475 µg/mL
Cc1ccc(N2CCN(c3cncc(-c4ccc(F)c(Cl)c4)n3)CC2)c(C)c1 | Cytomegalovirus | - | 10 µM | inhibition | target | - | UL97 kinase | - | - | >15%

ICn: concentration for n% inhibition. ECn is the concentration giving n% inhibition of infection, replication or growth. Blank or dashed fields: not listed here. Rows are shuffled and stem from different studies. MIC bound: limit read from a one-dose screen. A number after MIC or MFC names an inhibition level or a share of isolates.